Measured values reported in paper doi:10.1101/2021.04.08.438924 (bioRxiv, 2021).

Molecular target: T1, FLAG-tagged full-length CLEC4G, affinity-purified (human, UniProt Q6UXB4 1-293)
T1 sequence: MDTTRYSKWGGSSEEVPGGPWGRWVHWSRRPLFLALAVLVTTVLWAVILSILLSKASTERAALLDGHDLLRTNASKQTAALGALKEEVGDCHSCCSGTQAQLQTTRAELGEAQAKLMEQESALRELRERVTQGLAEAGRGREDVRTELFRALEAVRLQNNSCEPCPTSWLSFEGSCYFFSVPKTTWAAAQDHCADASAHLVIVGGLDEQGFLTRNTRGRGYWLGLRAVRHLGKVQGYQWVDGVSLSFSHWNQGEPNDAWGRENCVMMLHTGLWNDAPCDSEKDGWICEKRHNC
Assay: pull-down

B1: SARS-CoV-2 NTD ([…]) with a C-terminal His tag (domain or fragment)
chain: not shown
B1: binds.
